This passage reports EC50 results from paper PMC8236845.

The experiment deals with binding of recombinant, trimeric SARS-CoV-2 spike protein to recombinant human ACE2 (Severe acute respiratory syndrome coronavirus 2, UniProt P0DTC2, K986P/R682G/R683S/R685S/V987P). Set-up: species or system SARS-CoV-2 / human. Conditions: read-out: EC50 (corrected).

Avermectin B1: the EC50 is 18 µM.

By EC50 is commonly meant the midpoint of the concentration-response curve.
